Measured values from several laboratories, pooled; numbers as filed in NIAID ChemDB.

Common to all: cytotoxicity tests; read-out: CC50

CCn is the concentration with n% toxicity to the cells. Two numbers with a dash give a range or band. Lines come from different laboratories, so protocols vary.

C/C(=N\OCc1ccc(F)cc1)c1c(C)cc(=O)n(O)c1O ; method: MTS ; cells: HepG2-NTCO-12 ; setting: 3 d ; result: >100 µM
O=C(Nc1c(Cl)cccc1Cl)NC1N=C(c2ccccc2)c2ccccc2NC1=O ; cells: HEP-2 ; result: 5 µM
CCN(CC)C(=S)S ; cells: VERO ; result: 6.5 µg/mL
Cc1cc(=O)n(CCOCP(=O)(O)O)c(N)n1 ; cells: CCRF-CEM ; result: <10 µM
COc1ccc(C(=O)NC2N=C(c3ccccc3)c3ccccc3NC2=O)c(OC)c1 ; cells: HEP-2 ; result: <0.3 µM
CO[C@H]1/C=C/O[C@@]2(C)Oc3c(C)c(O)c4c(O)c(c(C5SCCS5)c(O)c4c3C2=O)NC(=O)/C(C)=C\C=C\[C@H](C)[C@@H]2OC(C)(C)O[C@H]([C@@H](C)[C@H](O)[C@@H]1C)[C@@H]2C ; cells: VERO ; result: 14.34 µg/mL
COc1ccc(-c2cc(=O)c3c(OC)cc(OC)c([C@H]4C(=O)c5c(OC)cc(OC)cc5O[C@@H]4c4ccc(OC)cc4)c3o2)cc1 ; method: visual reading ; cells: MA-104 ; result: ~15 µg/mL
CO[C@@]12[C@H](COC(N)=O)C3=C(C(=O)C(C)=C(N4CCCC4)C3=O)N1C[C@@H]1N[C@@H]12 ; cells: VERO ; result: 1.1 µg/mL
O=C(NC1N=C(c2ccccc2)c2ccccc2NC1=O)c1ccccc1C(F)(F)F ; cells: VERO ; result: 4 µM
CO[C@H](C)[C@@H](NC(=O)[C@@H]1CCCN1C)[C@@H]1O[C@@H](SCCOC(=O)c2ccccc2O)[C@@H](O)[C@H](O)[C@H]1O ; cells: HeLa ; result: 50 µg/mL
CC(=O)Oc1ccc([C@@H]2CC(=O)c3c(cc(OC(C)=O)c(-c4c(OC(C)=O)cc5c(c4OC(C)=O)C(=O)C[C@@H](c4ccc(OC(C)=O)cc4)O5)c3OC(C)=O)O2)cc1 ; method: visual reading ; cells: BSC-1 ; result: <4 µg/mL
CCOc1ccc2ccccc2c1C(=O)NC1N=C(c2ccccc2)c2ccccc2NC1=O ; cells: HEP-2 ; result: 8.2 µM
O=C1c2ccccc2C(=O)c2c1sc1nc3ccccc3n21 ; cells: VERO ; result: 0.3 µg/mL
CCOC(=O)c1ccc2c(c1)nc(-c1ccc(N3CCOCC3)cc1)n2CCN1CCCOC1 ; method: MTT ; cells: Vero cell ; result: >62.5 µg/mL
CC(C)N=c1cc2n(-c3ccc(Cl)cc3)c3ccccc3nc-2cc1Nc1ccc(Cl)cc1 ; cells: VERO ; result: 13.8 µg/mL
C=C1O[C@@](CO)(n2cnc3c(N)ncnc32)[C@H](O)[C@@H]1O ; cells: HeLa ; result: >100 µg/mL
CC/C(=N\NC(=O)c1ccncc1)c1ccc(Cl)cc1 ; cells: VERO ; result: >62.5 µg/mL
Nc1ncc2c(ncn2COC(CO)CO)n1 ; method: MTT ; cells: CBMC ; result: 26 µM
N[C@H]1[C@H](O)[C@@H](O)[C@@H](O[C@H]2O[C@H](CO)[C@@H](O)[C@H](O)[C@H]2O)O[C@@H]1CO ; cells: HeLa ; result: >400 µg/mL
CCCCCCCCN1COC2CCc3ccccc3C21 ; cells: VERO ; result: >10 µg/mL
CC(=O)[C@]1(O)Cc2c(O)c3c(c(O)c2[C@@H](O[C@H]2C[C@H](N)[C@H](O)[C@H](C)O2)C1)C(=O)c1c(O)cccc1C3=O ; cells: HeLa ; result: <1 µg/mL
CCOC(=O)c1ccc2c(c1)nc(-c1ccc(O)c(OC)c1)n2CCN1CCCOC1 ; method: MTT ; cells: Vero cell ; result: >62.5 µg/mL
O=c1cc(-c2ccc(O)c(-c3c(O)cc(O)c4c(=O)cc(-c5ccc(O)cc5)oc34)c2)oc2cc(O)cc(O)c12 ; method: visual reading ; cells: BSC-1 ; result: <10 µg/mL
CC1CC(OC(=O)C(O)c2ccccc2)CC(C)(C)C1 ; cells: HeLa ; result: 20–100 µg/mL
O=C(O)P(=O)(O)O ; method: MTT ; cells: CBMC ; result: 893 µM
[O-][n+]1c2ccccc2nc2ccccc21 ; cells: VERO ; result: >10 µg/mL
Nc1ncnc2c1ccn2[C@@H]1O[C@H](CO)[C@@H](O)[C@H]1O ; cells: HeLa ; result: 200 µg/mL
CCOC(=O)c1ccc2c(c1)nc(-c1ccccc1)n2CCN1CCCOC1 ; method: MTT ; cells: Vero cell ; result: >62.5 µg/mL
O=C1C2C3CCC(O3)C2C(=O)N1SC(Cl)(Cl)Cl ; cells: VERO ; result: 202.7 µg/mL
Nc1nc(OCCOCP(=O)(O)O)cc(=O)[nH]1 ; cells: L1210 ; result: 10 µM
O=C(N[C@H]1N=C(c2ccccc2)c2ccccc2NC1=O)c1cccc2cc[nH]c12 ; cells: HEP-2 ; result: 1.2 µM
Nc1cc(OCCOCP(=O)(O)O)nc(N)n1 ; cells: CCRF-CEM ; result: <10 µM
Cc1c(N)nc([C@H](CC(N)=O)NC[C@@H](N)C(N)=O)nc1C(=O)N[C@H](C(=O)NC(C)C(O)CC(=O)NC(C(=O)NC(OC1OC(C)C(N)C(O)C1O)C(O)c1nc(-c2nc(C(=O)NCCCCN)cs2)cs1)[C@H](C)O)C(OC1OC(CO)C(O)C(O)C1OC1OC(CO)C(O)C(OC(N)=O)C1O)c1cnc[nH]1.Cl.Cl.Cl.Cl ; cells: VERO ; result: 8.7 µg/mL
C[C@@H]1O[C@@H](O[C@H]2C[C@@H](O)[C@]3(CO)[C@H]4[C@H](O)C[C@]5(C)[C@@H](C6=CC(=O)OC6)CC[C@]5(O)[C@@H]4CC[C@]3(O)C2)[C@H](O)[C@H](O)[C@H]1O ; cells: HeLa ; result: <1 µg/mL
Nc1cc2nc3ccccc3sc-2cc1=O ; cells: VERO ; result: 1.7 µg/mL
CCOC(=O)c1ccc2c(c1)nc(-c1ccc(N(C)C)cc1)n2CCN1CCCC1=O ; method: MTT ; cells: Vero cell ; result: >62.5 µg/mL
CCCCCCCCCCCCSC(N)=S ; cells: VERO ; result: 40.7 µg/mL
CCOC(=O)c1ccc2nc(-c3ccc(O)cc3O)[nH]c2c1 ; method: MTT ; cells: Vero cell ; result: >62.5 µg/mL
Cc1cccc(/C=N/Nc2ccccn2)n1 ; cells: VERO ; result: 0.72 µg/mL
CCOC(=O)c1ccc2c(c1)nc(-c1ccc(Br)cc1)n2CCN1CCCC1=O ; method: MTT ; cells: Vero cell ; result: >62.5 µg/mL
CCCCC/C=C\C/C=C\CCCCCCCC(=O)O ; cells: HeLa ; result: 100–200 µg/mL
Cc1c2c(c(C)c3c1[nH]c1ccccc13)C(C#N)N(C(=O)c1ccccc1)C=C2 ; cells: VERO ; result: 0.3 µg/mL
O=C(O)CP(=O)(O)O ; method: MTT ; cells: HSB-2 ; result: 51 µM
Nc1cc(SCCOCP(=O)(O)O)nc(N)n1 ; cells: CCRF-CEM ; result: <10 µM
O=c1[nH]c(=O)n([C@H]2C[C@H](O)[C@@H](CO)O2)cc1/C=C/Br ; method: MTT ; cells: CBMC ; result: 196 µM
Cc1nn(C)c2c(N)n[nH]c12 ; cells: VERO ; result: 129 µg/mL

For reference, 6 entries again:

Cc1cc(=O)n(CCOCP(=O)(O)O)c(N)n1 ; cells: CCRF-CEM ; result: <10 µM
O=C(N[C@H]1N=C(c2ccccc2)c2ccccc2NC1=O)c1cccc2cc[nH]c12 ; cells: HEP-2 ; result: 1.2 µM
CC1CC(OC(=O)C(O)c2ccccc2)CC(C)(C)C1 ; cells: HeLa ; result: 20–100 µg/mL
CO[C@@]12[C@H](COC(N)=O)C3=C(C(=O)C(C)=C(N4CCCC4)C3=O)N1C[C@@H]1N[C@@H]12 ; cells: VERO ; result: 1.1 µg/mL
CCOC(=O)c1ccc2c(c1)nc(-c1ccc(N3CCOCC3)cc1)n2CCN1CCCOC1 ; method: MTT ; cells: Vero cell ; result: >62.5 µg/mL
O=C1c2ccccc2C(=O)c2c1sc1nc3ccccc3n21 ; cells: VERO ; result: 0.3 µg/mL